Measurements reported in PubChem BioAssay AID504761 (Drosophila RNAi Screening Center, 2011)

Aim: 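Genome-wide fly cell screen for genes dengue virus requires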 (primary screen)
System: D.Mel-2 cells from Drosophila
Reagents: long dsRNA against Drosophila genes
Challenge: infection with dengue virus type 2; dose and infection time not stated
Measurement: 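Per well on two replicate plates, imaging gave the percent of cells positive for viral envelope protein, ranked by infection, and a nuclear count of cells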
Direction: infection score: higher = more virus-infected cells; cell count: higher = more cells in the well
Rule for the call: 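Very low infection ranking in both replicate wells (chance probability at most 0.065), then a retest showing infection dropped 1.5-fold or more at p below 0.05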
Meaning of the calls: active = confirmed: knock-down lowers infection; inactive = not picked or not confirmed
The deposit covers about 22,000 reagents; this is an unselected part of those that have a named target and a result. In the full data, 116 (0.52%) got an active call. 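Calls depend on retest data that are not deposited; infection was ranked per plate without normalising between plates; the unit of the infection score is not given.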 The raw values are shown without normalisation. Unmarked entries are inactive. Not given: the amount of reagent, the time to read-out.

CG11417 [DRSC18581] gave infection score, replicate 1 = 2.12; infection score, replicate 2 = 2.42; cell count, replicate 1 = 5699; cell count, replicate 2 = 6148.
Gp210 [DRSC04861] scored infection score, replicate 1 = 1.89; infection score, replicate 2 = 9.12; cell count, replicate 1 = 6836; cell count, replicate 2 = 5921.
For Gp210 [DRSC04900], the values are infection score, replicate 1 = 10.2; infection score, replicate 2 = 27.9; cell count, replicate 1 = 6219; cell count, replicate 2 = 5519.
Ltn1 [DRSC11056] scored infection score, replicate 1 = 8.22; infection score, replicate 2 = 11.9; cell count, replicate 1 = 6438; cell count, replicate 2 = 6582.
Against Ltn1 [DRSC11058] the deposit lists infection score, replicate 1 = 1.34; infection score, replicate 2 = 3.65; cell count, replicate 1 = 6561; cell count, replicate 2 = 6321.
With knock-down of erm [DRSC00700] the results were infection score, replicate 1 = 5.35; infection score, replicate 2 = 14.7; cell count, replicate 1 = 6075; cell count, replicate 2 = 5956.
CG13640 [DRSC14639] gave cell count, replicate 1 = 354; cell count, replicate 2 = 301.
Against CG13082 [DRSC02186], the entry reads infection score, replicate 1 = 12.6; infection score, replicate 2 = 2.84; cell count, replicate 1 = 5668; cell count, replicate 2 = 879.
CG13082 [DRSC26734] scored infection score, replicate 1 = 8.76; infection score, replicate 2 = 7.85; cell count, replicate 1 = 6096; cell count, replicate 2 = 7008.
Against CG32436 [DRSC11683], the entry reads infection score, replicate 1 = 4.67; infection score, replicate 2 = 5.87; cell count, replicate 1 = 6216; cell count, replicate 2 = 6371.
Silencing of CG32436 [DRSC11796] gave: infection score, replicate 1 = 15.6; infection score, replicate 2 = 5.62; cell count, replicate 1 = 6464; cell count, replicate 2 = 5802.
Against Setd3 [DRSC17840], the values are infection score, replicate 1 = 1.09; infection score, replicate 2 = 0.98; cell count, replicate 1 = 6667; cell count, replicate 2 = 6870.
Depletion of Setd3 [DRSC18269] gave: infection score, replicate 1 = 2; infection score, replicate 2 = 1.18; cell count, replicate 1 = 6797; cell count, replicate 2 = 6791.

Records above whose target name begins with S or s (2):
Setd3 [DRSC17840] | infection score, replicate 1 = 1.09; infection score, replicate 2 = 0.98; cell count, replicate 1 = 6667; cell count, replicate 2 = 6870
Setd3 [DRSC18269] | infection score, replicate 1 = 2; infection score, replicate 2 = 1.18; cell count, replicate 1 = 6797; cell count, replicate 2 = 6791
